Anti-infective test results gathered from many reports (values: NIAID ChemDB through PubChem).

All rows: tests in culture; species: Candida albicans; endpoint: MIC

Lines come from different laboratories, so protocols vary.

Clc1ccc2c(c1)nnc1c3ccccc3[nH]c21 ; value: 9.4 µM
Cc1ccc(-n2c(=S)[nH]c3c(sc(=S)n3-c3ccc(Cl)cc3)c2=O)cc1 ; strain: DSM 70443 ; value: 100 µg/mL
COc1cc([C@H]2COc3c(ccc(O)c3OC)C2)c(OC)c(OC)c1OC ; value: >200 µg/mL
OC(Cn1cncn1)(c1ccc(F)cc1F)C(F)(F)c1ncccn1 ; strain: ATCC 90028 ; value: 0.5 µg/mL
CCCCC/C=C\C/C=C/CC/C=C/[C@H]1C[C@H]([C@](O)(CC(=O)O[C@@H](C(=O)O)[C@H](CC(=O)O)C(=O)O)C(=O)O)C(=O)O1 ; value: 6.9 µM
C=C(CN1CCN(C)CC1)C(=O)c1ccccc1 ; value: 128 µg/mL
C/C(=N\NC(=O)CSc1n[nH]c(C)n1)c1ccccc1[N+](=O)[O-] ; strain: ATCC 90028 ; value: 200 µg/mL
CC(N1CCN(c2ccc(-n3cnn(Cc4ccc(C(F)(F)F)cc4)c3=O)cc2F)CC1)C(O)(Cn1cncn1)c1ccc(F)cc1F ; strain: Y0109 ; value: <0.048 µg/mL
COc1cc(C=Nc2ccc(N3CCOCC3)cc2)ccc1O ; strain: ATCC 2091 ; value: 20 µg/mL
C/C(=N\NC(=O)CSc1ncn[nH]1)c1ccccc1[N+](=O)[O-] ; strain: ATCC 90028 ; value: 200 µg/mL
C=C(CN(C)C)C(=O)c1ccccc1 ; value: 128 µg/mL
COC1=CC(=O)c2c(O)c(C)c(CC(C)=O)c(O)c2C1=O ; value: 40 µg/mL
C/C(=N\NC(=O)CSc1ncn[nH]1)c1ccc(Cl)cc1 ; strain: ATCC 90028 ; value: 200 µg/mL
COc1ccc(O)c(C2Sc3ccccc3C2CO)c1 ; value: 25 µg/mL
Cc1ccc2nnc3c4ccccc4[nH]c3c2c1 ; value: >200 µM
C=C(CN(C)C)C(=O)c1ccc(OC)cc1 ; value: 32 µg/mL
CCc1nc(SCC(=O)N/N=C(\C)c2ccccc2O)n[nH]1 ; strain: ATCC 90028 ; value: 200 µg/mL
COc1cccc(C2Sc3ccccc3C2CO)c1O ; value: 50 µg/mL
Cc1cccc(-n2c(=S)[nH]c3c(sc(=S)n3-c3cccc(C)c3)c2=O)c1 ; strain: DSM 70443 ; value: 70 µg/mL
COC1=CC(=O)[C@H]2O[C@@]2(C)[C@H]1O ; value: 200 µg/mL
C=C1CC(C/C(C)=C/COc2ccc3ccc(=O)oc3c2)OC1=O ; strain: MTCC 183 ; value: 78 µg/mL
[N-]=[N+]=Nc1nc2c(sc(=S)n2-c2ccccc2)c(=O)n1-c1ccccc1 ; strain: DSM 70443 ; value: 40 µg/mL
CC(N1CCN(c2ccc(-n3cnn(Cc4ccc(OC(F)(F)F)cc4)c3=O)cc2)CC1)C(O)(Cn1cncn1)c1ccc(F)cc1F ; strain: Y0109 ; value: <0.048 µg/mL
O=c1c2sc(=S)n(-c3ccccc3)c2[nH]c(=S)n1-c1ccccc1 ; strain: DSM 70443 ; value: 80 µg/mL
CC#CC#CC#Cc1ccccc1 ; strain: ATCC 885-653 ; value: 50 µg/mL
Cc1cccc(-n2c(=S)sc3c(=O)n(-c4ccccc4)c(=S)[nH]c32)c1 ; strain: DSM 70443 ; value: 90 µg/mL
Clc1ccc(C(Cn2ccnc2)OCc2csc3c(Cl)cccc23)c(Cl)c1 ; strain: 16 strains ; value: 2 µg/mL
C/C(=N\NC(=O)CSc1ncn[nH]1)c1ccccc1Cl ; strain: ATCC 90028 ; value: 200 µg/mL
OCC1c2ccccc2SC1c1ccccc1 ; value: 50 µg/mL
Cc1c(O)cccc1C(=O)N[C@@H](CSc1ccccc1)[C@H](O)CN1C[C@H]2CCCC[C@H]2C[C@H]1C(=O)NC(C)(C)C ; strain: I2 ; value: 64 µg/mL
COc1ccc(C2Sc3ccccc3C2CO)c(O)c1 ; value: 100 µg/mL
Cc1noc(C)c1C(F)(F)C(O)(Cn1cncn1)c1ccc(F)cc1F ; strain: ATCC 90028 ; value: 0.125 µg/mL
OCC1c2ccccc2SC1c1ccc2c(c1)OCO2 ; value: 25 µg/mL
O=[N+]([O-])c1ccc(C(F)(F)C(O)(Cn2cncn2)c2ccc(F)cc2F)o1 ; strain: ATCC 90028 ; value: 0.125 µg/mL
COc1ccc(C=Nc2ccc(N3CCOCC3)cc2)cc1 ; strain: ATCC 2091 ; value: 24 µg/mL
CC(C)[C@@H](C)[C@H](O)[C@@H]1CC23CC(=O)[C@]4(O)C(=C2CC[C@@H]3[C@@H]1C)C=CC1CC(=O)CC[C@@]14C ; strain: IFM 40009 ; value: >80 µg/mL
CC(C)=C[C@H]1C[C@](C)(O)C2C3CCC4[C@@]5(C)CCC[C@](C)(O[C@H]6OC[C@H](O)[C@H](OC7O[C@H](CO)[C@@H](O)[C@H](O)[C@H]7O)[C@H]6O[C@H]6C[C@H](CO)[C@@H](O)[C@@H]6O)C5CC[C@@]4(C)[C@@]34CO[C@@]2(C4)O1 ; value: 50 µg/mL
C(=Nc1ccc(N2CCOCC2)cc1)c1ccco1 ; strain: ATCC 2091 ; value: 25 µg/mL
CN(C)c1ccc(-c2sc3ccccc3c2CO)cc1 ; value: 25 µg/mL
C/C(=N\NC(=O)CSc1ncn[nH]1)c1ccc([N+](=O)[O-])cc1 ; strain: ATCC 90028 ; value: 100 µg/mL
COc1ccc2[nH]c3c4ccccc4nnc3c2c1 ; value: >200 µM
C/C(=N\NC(=O)CSc1n[nH]c(C)n1)c1ccccc1O ; strain: ATCC 90028 ; value: 800 µg/mL
Cc1cccc(-n2c(=S)[nH]c3c(sc(=S)n3-c3ccccc3C)c2=O)c1 ; strain: DSM 70443 ; value: 80 µg/mL
OCc1c(-c2ccc3c(c2)OCO3)sc2ccccc12 ; value: 25 µg/mL
OC(Cn1cncn1)(c1ccc(C(F)(F)F)cc1)C(F)(F)c1cccs1 ; strain: ATCC 90028 ; value: ≤0.125 µg/mL
C=C(CN1CCOCC1)C(=O)c1ccc(Cl)cc1 ; value: 32 µg/mL
Cc1ccccc1-n1c(=S)[nH]c2c(sc(=S)n2-c2ccccc2)c1=O ; strain: DSM 70443 ; value: 70 µg/mL
CC(C)=CCC/C(C)=C/CC/C(C)=C/CCCN(C)CC/C=C(\C)CCC1OC1(C)C ; value: >200 µM
O=C(O)c1ccc(C[C@H](C(=O)O)[C@@H](O)C(=O)O)cc1 ; strain: ATCC 10231 ; value: >4 µg/mL

Repeating the final 3 entries:

{"structure": "Cc1ccccc1-n1c(=S)[nH]c2c(sc(=S)n2-c2ccccc2)c1=O", "strain": "DSM 70443", "value": "70 µg/mL"}
{"structure": "CC(C)=CCC/C(C)=C/CC/C(C)=C/CCCN(C)CC/C=C(\\C)CCC1OC1(C)C", "value": ">200 µM"}
{"structure": "O=C(O)c1ccc(C[C@H](C(=O)O)[C@@H](O)C(=O)O)cc1", "strain": "ATCC 10231", "value": ">4 µg/mL"}